Pooled drug test results. Numbers come from NIAID ChemDB, via PubChem.

Common to all: whole-cell or culture tests; agent: Candida albicans; measure: MIC

Rows are shuffled and stem from different studies.

{"structure": "CC1=C(Sc2ccc(F)cc2F)C(=O)c2sc(C)nc2C1=O", "strain or isolate": "ATCC20231", "result": "50 µg/mL"}
{"structure": "CCN1CCS/C1=C(/C#N)n1ccnc1", "result": ">100 µg/mL"}
{"structure": "Cn1c(=O)c(-c2[nH][nH]c(=O)c2N=Nc2ccccc2Br)c(O)c2ccccc21", "strain or isolate": "ATCC 10231", "result": ">100 µg/mL"}
{"structure": "Cc1c(Cl)[n+](=O)c2cc(Cl)ccc2n1[O-]", "strain or isolate": "Clinical isolate 20", "result": "7.8 µg/mL"}
{"structure": "CCCCCCCCCCCCCC#CC1=N[C@H]1C(=O)OC", "strain or isolate": "ATCC 14503", "result": "4–5 µg/mL"}
{"structure": "O=C1CC(Nc2ccc(Oc3ccc(Cl)cc3)c(Cl)c2)C(=O)N1c1cccc2ccccc12", "result": ">200 µg/mL"}
{"structure": "Clc1ccc(/C(Cn2ccnc2)=N\\Nc2c(Cl)cccc2Cl)s1", "strain or isolate": "B", "result": "6.2 µg/mL"}
{"structure": "CCOc1cc2c(cc1F)n([O-])c(C)c(Cl)[n+]2=O", "strain or isolate": "Clinical isolate 24", "result": "31.25 µg/mL"}
{"structure": "CC(n1nccn1)C(O)(Cn1cncn1)c1ccc(Cl)cc1", "strain or isolate": "TA", "result": "100 µg/mL"}
{"structure": "O=C(O)c1ccc(N2C(=O)CC(Nc3ccc(Oc4ccc(Cl)cc4)c(Cl)c3)C2=O)cc1", "result": ">200 µg/mL"}
{"structure": "O=C1C=C(Nc2ccc(C(F)(F)F)cc2)C(=O)c2scnc21", "strain or isolate": "ATCC20231", "result": "1.25 µg/mL"}
{"structure": "C[C@@H](n1ccnn1)[C@](O)(Cn1cncn1)c1ccc(F)cc1", "strain or isolate": "TA", "result": ">100 µg/mL"}
{"structure": "CCCCCCCCCCCCCCCCn1cc[n+](C)c1", "result": "8 µg/mL"}
{"structure": "C[C@H]1[C@H](O)[C@@H](C)/C=C/C=C/C=C/C=C/C=C/C=C/C=C/[C@H](O[C@@H]2O[C@H](C)[C@@H](O)[C@H](N)[C@@H]2O)C[C@@H]2O[C@](O)(C[C@@H](O)C[C@@H](O)CC[C@H](O)[C@@H](O)C[C@@H](O)CC(=O)O[C@H]1C)C[C@H](O)[C@H]2C(=O)O", "strain or isolate": "ATCC 10231", "result": ">100 µg/mL"}
{"structure": "CC(n1ccnn1)C(O)(Cn1cncn1)c1ccc(Cl)cc1", "strain or isolate": "TA", "result": "50 µg/mL"}
{"structure": "O=c1oc(=NCc2ccccc2)c2sc3c(=O)oc(=NCc4ccccc4)c3sc12", "strain or isolate": "ATCC 90028", "result": ">51.2 µg/mL"}
{"structure": "Clc1ccc(CO/N=C2/c3ccccc3OCC2n2ccnc2)c(Cl)c1", "result": "32 µg/mL"}
{"structure": "COc1ccc(SC2=C(O)C(=O)c3nc(C)sc3C2=O)cc1", "strain or isolate": "ATCC20231", "result": ">100 µg/mL"}
{"structure": "O=C1CC(Nc2ccc(Oc3ccc(Cl)cc3)c(Cl)c2)C(=O)N1c1ccccc1", "result": "40 µg/mL"}
{"structure": "Nc1ccc(Cl)cc1C(=O)Nc1ccccc1", "strain or isolate": "ATCC 44859", "result": "500 µM"}
{"structure": "Clc1ccc2c(c1)OCC(n1ccnc1)/C2=N\\OCc1ccccc1", "result": "4 µg/mL"}
{"structure": "CC(n1ncnn1)C(O)(Cn1cncn1)c1ccccc1F", "strain or isolate": "TA", "result": "50 µg/mL"}
{"structure": "Cc1ccc(SC2=C(O)C(=O)c3nc(C)sc3C2=O)cc1", "strain or isolate": "ATCC20231", "result": ">100 µg/mL"}
{"structure": "Nc1ccc(Cl)cc1C(=O)Nc1ccc(F)cc1", "strain or isolate": "ATCC 44859", "result": ">1000 µM"}
{"structure": "CN1C(=O)CC(Nc2ccc(Oc3ccc(Cl)cc3)c(Cl)c2)C1=O", "result": ">200 µg/mL"}
{"structure": "CCCCCCCCCCCCCC[n+]1c(C(C)O)c[nH]c1C", "result": "125 µg/mL"}
{"structure": "O=C1CC(Nc2ccc(Oc3ccc(Cl)cc3)c(Cl)c2)C(=O)N1c1ccc(Sc2ccc([N+](=O)[O-])cc2)cc1", "result": ">200 µg/mL"}
{"structure": "Cn1c(=O)c(-c2[nH][nH]c(=O)c2N=Nc2cccc(Br)c2)c(O)c2ccccc21", "strain or isolate": "ATCC 10231", "result": "50 µg/mL"}
{"structure": "CCCCCCCCCCCCCCCC1=N[C@H]1C(=O)OC", "strain or isolate": "UCD-FR1", "result": ">64 µg/mL"}
{"structure": "c1ccc(CO/N=C2/c3ccccc3OCC2n2ccnc2)cc1", "result": "16 µg/mL"}
{"structure": "CCCn1c(=O)c2sc3c(=O)n(CCC)c(=O)c3sc2c1=O", "strain or isolate": "ATCC 90028", "result": "<0.1 µg/mL"}
{"structure": "Cc1c(S(=O)(=O)c2ccccc2)[n+](=O)c2cc(Cl)ccc2n1[O-]", "strain or isolate": "Clinical isolate 5", "result": "31.25 µg/mL"}
{"structure": "Nc1[nH]c(=O)ncc1F", "strain or isolate": "2716", "result": "0.13 µg/mL"}
{"structure": "OC(Cn1cncn1)(Cn1cncn1)c1ccc(F)cc1F", "strain or isolate": "2881", "result": "6.25 µg/mL"}
{"structure": "CCN1/C(=C(\\C#N)n2ccnc2)SCC1C", "result": ">100 µg/mL"}
{"structure": "C=C1/C=C(\\C)[C@H](CC)OC(=O)[C@H](C)C(=O)C(O)(CO)C/C(C)=C/[C@@H](C)C1", "strain or isolate": "MY1055", "result": ">200 µg/mL"}
{"structure": "CCCCCCCCCOCC(OC)C(=O)O", "strain or isolate": "ATCC 14053", "result": "2600 µM"}
{"structure": "O=C(/C(=C1/SCCN1c1ccc(Cl)cc1)n1ccnc1)c1ccc(Cl)cc1", "result": ">100 µg/mL"}
{"structure": "O=c1oc(=NC2CCCCC2)c2sc3c(=O)oc(=NC4CCCCC4)c3sc12", "strain or isolate": "ATCC 90028", "result": ">51.2 µg/mL"}
{"structure": "Clc1ccc(CO/N=C2\\c3ccccc3OCC2n2ccnc2)cc1Cl", "result": "1 µg/mL"}
{"structure": "COC(=O)[C@@H]1N=C1/C=C\\CCCCCCCCCCCCC(C)(C)C", "strain or isolate": "96-489", "result": ">64 µg/mL"}
{"structure": "c1ccc(CO/N=C2\\c3ccccc3OCC2n2ccnc2)cc1", "result": "32 µg/mL"}
{"structure": "C[C@H](n1ccnn1)[C@@](O)(Cn1cncn1)c1ccccc1F", "strain or isolate": "TA", "result": ">100 µg/mL"}
{"structure": "COc1ccc(C2NC(=S)Nc3[nH]c(=O)sc32)cc1OC", "strain or isolate": "ATCC 10231", "result": "312.5 µg/mL"}
{"structure": "COc1cc2nccc3c4ccccc4n(c1=O)c23", "result": "190.3 µM"}
{"structure": "CC(n1nccn1)C(O)(Cn1cncn1)c1ccc(F)cc1", "strain or isolate": "TA", "result": "50 µg/mL"}
{"structure": "O=[n+]1c(Sc2ccccc2)c(CBr)n([O-])c2ccccc21", "strain or isolate": "Clinical isolate 18", "result": "15.6 µg/mL"}
{"structure": "Nc1ccccc1C(=O)Nc1ccc(Br)cc1", "strain or isolate": "ATCC 44859", "result": ">1000 µM"}
{"structure": "C[C@@H](n1ccnn1)[C@](O)(Cn1cncn1)c1ccc(F)cc1F", "strain or isolate": "TA", "result": ">100 µg/mL"}
{"structure": "Clc1ccc(CO/N=C2/c3ccccc3OCC2n2ccnc2)cc1Cl", "result": "2 µg/mL"}
{"structure": "O=c1c2cc(Cl)ccc2nnn1-c1ccccc1", "strain or isolate": "ATCC 44859", "result": ">1000 µM"}
{"structure": "Cn1c(=O)c(-c2[nH][nH]c(=O)c2N=Nc2ccccc2Cl)c(O)c2ccccc21", "strain or isolate": "ATCC 10231", "result": "50 µg/mL"}
{"structure": "CCOC(=O)/C(=C1/SCCC(C)S1)n1ccnc1", "result": ">100 µg/mL"}
{"structure": "Cc1c(Sc2ccccc2)[n+](=O)c2cc(Cl)ccc2n1[O-]", "strain or isolate": "Clinical isolate 15", "result": "15.6 µg/mL"}
{"structure": "CCOc1ccc(N2C(=O)CC(Nc3ccc(Oc4ccc(Cl)cc4)c(Cl)c3)C2=O)cc1", "result": "20 µg/mL"}
{"structure": "Brc1ccc(CO/N=C2/c3ccccc3OCC2n2ccnc2)cc1", "result": "4 µg/mL"}

a–b is a range or a potency band.